Data published in patent US20210332086A1 (published 2021).

Biological target: MERS-CoV S-protein (on 293FT effector cells) (MERS-CoV, UniProt K9N5Q8)
Assay: cell-based or functional assay

Binder	EC50 (µM), cell-cell fusion assay
SLTQINWTLLDLTYEMESLQQVVKALNEYYIDLKE [Peptide 5]	0.432 µM
SLTQINWTLLDLTYEMESLQQVVKALNEYYIDLKHL [Peptide 6]	0.917 µM
SLTQINWTLLDLTYEMESLQQVMKALNEYYIDLKHL [Peptide 7]	2.35 µM
SLTQINTTLLDLEYEMRSLEEVVKKLNESYIDLKEL [Peptide 11]	0.039 µM
SLTQINTTLLDLEYEMRSLEEVVKKLNESYIDEKEL [Peptide 12]	0.831 µM
